A mixed list of measured activities; the numbers were collected in NIAID ChemDB.

All rows: host cell toxicity; cells: VERO; endpoint: CC50

CCn: concentration that lowers growth or viability of the cells by n%.

COc1ccc2nc3n[nH]c(C)c3c(Cl)c2c1 ; value: >100 µg/mL
Cc1nc2ccc(C(F)(F)F)cn2c1C(=O)NCc1ccc2c(c1)CCO2 ; value: >32 µM
OC[C@@H]1OC[C@@H](On2cnc3c(Cl)ncnc32)O1 ; value: >100 µg/mL
COC1=NC2=CC(=O)c3c(c(OC(C)=O)c(C)c4c3C(=O)[C@@](C)(O/C=C/[C@H](OC)[C@@H](C)[C@@H](OC(C)=O)[C@H](C)[C@H](O)[C@H](C)[C@@H](OC(C)=O)[C@@H](C)/C=C/C=C\1C)O4)C2=O ; value: 14.34 µg/mL
CN1CC(OCc2ccc(OCc3ccccc3)cc2)Cn2nc([N+](=O)[O-])cc21 ; value: >128 µM
C[C@H]1/C=C/[C@@]2(C)CC[C@@H](C(C)(C)O)[C@@H]2[C@@H](O)C[C@](C)(O)/C=C/C1 ; value: 184 µM
CC1(C)COCN1c1nc2c(cc1[N+](=O)[O-])c(=O)c(C(=O)O)c1sc3ccccc3n12 ; value: >142 µM
Cc1c(CN2CCN(C)CC2)cc(-c2ccc(Cl)cc2)n1-c1ccccc1 ; value: 4 µg/mL
Cc1c(N2CCn3cc(C(=O)O)nc3C2)c([N+](=O)[O-])cc2c(=O)c(C(=O)O)cn(C3CC3)c12 ; value: 138 µM
O=C(O)c1c(=O)c2cc([N+](=O)[O-])c(N3CCC(O)(c4ccc(Cl)cc4)CC3)nc2n2c1sc1ccccc12 ; value: 113 µM
O=c1[nH]cnc2c1ncn2O[C@@H]1CS[C@@H](CO)O1 ; value: >100 µg/mL
c1ccc(C(CCNCCN[C@H]2C[C@@H]3CC[C@H]2C3)c2ccccc2)cc1 ; method: MTS ; value: 25 µM
Cc1cn2c(C(=O)NCc3ccc4c(c3)CCO4)c(C)nc2s1 ; value: >32 µM
CC[C@H](CC[C@@H](C)[C@H]1CC[C@H]2[C@@H]3CC=C4C[C@@H](O)CC[C@]4(C)[C@H]3CC[C@]12C)C(C)C ; value: >102 µg/mL
Nc1nc(=O)n([C@H]2O[C@@H](CO)C=C2F)cc1F ; value: >100 µM
COc1ccc(/C=N/NC(=O)Cn2nc(-c3ccccc3)c3c2-c2ccccc2S(=O)(=O)N3C)c(OC)c1OC ; value: 19.6 µM
COc1ccc(C2CC(=O)Nc3nc(-c4ccncc4)nn32)cc1 ; value: >50 µg/mL
Cc1c(N2CCN(Cc3ccc4c(c3)OCO4)CC2)c([N+](=O)[O-])cc2c(=O)c(C(=O)O)cn(C3CC3)c12 ; value: 123 µM
Cc1cn2c(C(=O)NCc3ccc(N4CCCN(c5ccc(S(F)(F)(F)(F)F)cc5)CC4)cc3)c(C)nc2s1 ; value: >32 µM
CCOC(=O)C(NC(=O)c1ccccc1)(N1CCN(c2cc3c(cc2F)c(=O)c(C(=O)O)cn3CC)CC1)C(F)(F)F ; value: >62.5 µg/mL
C=C(C)C1CC=C(C)/C(=N/NC(=O)c2cccnc2)C1 ; method: MTT ; value: 420 µM
CC[C@@H](C(C)C)[C@@H](O)[C@H](O)[C@@H](C)[C@H]1CC[C@H]2[C@@H]3CC(=O)[C@@]4(O)C[C@@H](OC(C)=O)CC[C@]4(C)[C@H]3CC[C@]12C ; method: MTT ; value: 230 µM
Cc1ccc2nc(C)c(C(=O)NCc3ccc(N4CCC(c5ccc(OC(F)(F)F)cc5)CC4)cc3)n2c1 ; value: >32 µM
Cn1c(NNc2nc(Nc3cccc([N+](=O)[O-])c3)nc(Nc3cccc([N+](=O)[O-])c3)n2)nc(-c2ccc(Cl)cc2)c(C#N)c1=O ; value: 9 µg/mL
c1ccc(-c2cc3ccc(N4CCCCC4)nc3nc2N2CCCCC2)cc1 ; value: 2.74 µg/mL
CC1(C)CCc2cc(Cc3ccccc3)ccc2O1 ; value: 16 µg/mL
O=[N+]([O-])c1cn2c(n1)SCC(OCc1ccc(OC(F)(F)F)cc1)C2 ; value: >128 µM
O=c1[nH]cnc2c1ncn2O[C@H]1CS[C@@H](CO)O1 ; value: >100 µg/mL
O=C(O)c1c(=O)c2cc([N+](=O)[O-])c(N3CCC4(CC3)OCCO4)nc2n2c1sc1ccccc12 ; value: >130 µM
O=[N+]([O-])c1cn2c(n1)S(=O)(=O)CC(OCc1ccc(OCc3ccccc3)cc1)C2 ; value: >128 µM
COc1ccc2nc(C)cc(N/N=C/c3ccc(OC)c4ccccc34)c2c1 ; value: 2.7 µg/mL
OC[C@H]1CC(n2cnc3c(NC4CC4)ncnc32)C[C@@H]1CO ; value: >200 µg/mL
CCOC(=O)c1cc(C#N)c2[nH]c3ccccc3n2c1=O ; value: 150 µg/mL
CCOc1ccc2c(NN)cc(C)nc2c1 ; value: 25.2 µg/mL
CC1(C)[C@@H](CO)CC[C@@]1(C)Cn1nnc2c(N)ncnc21 ; value: >400 µg/mL
COc1ccc(C2CC(=O)Nc3nc(-c4cccnc4)nn32)cc1 ; value: >50 µg/mL
NC(=S)N/N=C/c1ccc2oc3ccccc3c2c1 ; value: 19.81 µg/mL
CN1c2c(-c3ccccc3)nn(CC(=O)N/N=C/c3ccccc3Br)c2-c2ccccc2S1(=O)=O ; value: >100 µM
COc1cc2c3c(cc(O)c2cc1C)C(C)(C)C(=O)OC3=O ; method: absorbance ; value: >10 µM
CCOc1ccc2c(c1)n([O-])c1cc(Cl)ccc1[n+]2=O ; value: 31.79 µg/mL
CC1(C)C=Cc2cc3oc4ccccc4c3c(Br)c2O1 ; value: 10 µg/mL
O=C1C=C(Nc2ccccc2N=C2C(N3C4=CCc5ccccc5C4=Nc4ccccc43)=CC(=O)c3ccccc32)C(=O)c2ccccc21 ; method: MTT ; value: 98.5 µM
CCOc1ccc2c(N/N=C/c3ccc(N(CC)CC)cc3)ccnc2c1 ; value: 6.4 µg/mL
Cc1c(N2CCC3(CC2)OCCO3)c([N+](=O)[O-])cc2c(=O)c(C(=O)O)cn(-c3ccc(F)cc3F)c12 ; value: 125 µM
c1ccc(C(CCNCCNCC23CC4CC(CC(C4)C2)C3)c2ccccc2)cc1 ; method: MTS ; value: 13 µM
CCCCCCCCCCCCCCCCCCCCCC[C@@H](O)C(=O)N[C@@H](CO)[C@H](O)[C@H](O)CCCCCCCCCCCCCC ; value: >102 µg/mL
Nc1cc2nc3ccccc3oc-2cc1=O ; value: 18.5 µg/mL
CC1(C)CCc2cc(C(=O)c3ccccc3)ccc2O1 ; value: 75 µg/mL
Cc1c(N2CCN(C)C(c3ccccc3)C2)c([N+](=O)[O-])cc2c(=O)c(C(=O)O)cn(C3CC3)c12 ; value: 135 µM
CC[C@H](/C=C/[C@@H](C)[C@H]1CC[C@H]2[C@@H]3C[C@@H](O)C4=CC(=O)CC[C@]4(C)[C@H]3CC[C@]12C)C(C)C ; value: >102 µg/mL
C=CCNc1nc2c(s1)C(=O)c1ccccc1C2=O ; value: 4 µg/mL
C=CCN(CCNC/C=C(\C)CCC=C(C)C)C1CCCC1 ; method: MTS ; value: 51 µM
COc1ccc(/C=N/NC(=O)Cn2nc(-c3ccccc3)c3c2-c2ccccc2S(=O)(=O)N3C)cc1 ; value: 15.4 µM
Nc1ncnc2c1ncn2O[C@@H]1CS[C@@H](CO)O1 ; value: >100 µg/mL
Cn1c(NNc2nc(Nc3ccc(F)c(Cl)c3)nc(Nc3ccc(F)c(Cl)c3)n2)nc(-c2ccc(Cl)cc2)c(C#N)c1=O ; value: 41 µg/mL
O=C1CC(c2ccccc2)n2nc(-c3cccnc3)nc2N1 ; value: >50 µg/mL
O=C1C=C(Nc2ccc(Br)cc2)c2ccccc2C1=O ; value: >10 µg/mL
CC1(C)C=Cc2cc(C(=O)c3ccccc3)ccc2O1 ; value: 32 µg/mL
CO[C@@]12[C@H](COC(N)=O)C3=C(C(=O)C(C)=C(N)C3=O)N1C[C@H]1[C@@H]2N1C(=O)c1ccc(Cl)c(Cl)c1 ; method: MTT ; value: 3.75 µM
OC[C@H]1O[C@@H](On2cnc3c(Cl)ncnc32)CS1 ; value: >100 µg/mL
O=C1CC(c2ccc([N+](=O)[O-])cc2)n2nc(C3CCCCC3)nc2N1 ; value: >50 µg/mL
CC[C@@H](C(C)C)[C@@H](O)[C@H](O)[C@@H](C)[C@H]1CC[C@H]2[C@@H]3CC(=O)[C@@]4(O)C[C@@H](Br)CC[C@]4(C)[C@H]3CC[C@]12C ; method: MTT ; value: 23 µM
O=P(O)(O)Oc1c(O)c2ccccc2c2ccccc12 ; value: 0.38 µg/mL
O=[N+]([O-])c1cn2c(n1)S(=O)CC(OCc1ccc(OC(F)(F)F)cc1)C2 ; value: >128 µM
CC1(C)[C@@H](CO)CC[C@@]1(C)Cn1cnc2c(N)ncnc21 ; value: >400 µg/mL
Cc1ccn2c(N=O)c(-c3ccccc3)nc2c1 ; method: MTT ; value: 52.7 µM
S=C(S)NN1CCCC1 ; value: <0.41 µg/mL
Cc1c(N2CCc3ccccc3C2C(=O)NC(C)(C)C)c([N+](=O)[O-])cc2c(=O)c(C(=O)O)cn(C3CC3)c12 ; value: 121 µM
CC(C)Nc1ncnc2c1ncn2C1C[C@H](CO)[C@@H](CO)C1 ; value: >200 µg/mL
CC1(C)[C@@H](CO)CC[C@@]1(C)Cn1cc(I)c(=O)[nH]c1=O ; value: >400 µg/mL
Cc1ccc(Nc2nc(NNc3nc(-c4ccccc4)c(C#N)c(=O)n3C)nc(Nc3ccc(C)cc3C)n2)c(C)c1 ; value: 8 µg/mL
CN[C@@H]1[C@H](O[C@H]2[C@H](O[C@H]3[C@H](O)[C@@H](O)[C@H](N=C(N)N)[C@@H](O)[C@@H]3N=C(N)N)O[C@@H](C)[C@]2(O)C=O)O[C@@H](CO)[C@H](O)[C@H]1O ; value: >64 µg/mL
COc1ccc2c(N/N=C/c3ccc(OC)c4ccccc34)ccnc2c1 ; value: 7.2 µg/mL
Cc1ccn2c(C(=O)NCc3ccc(N4CCOCC4)c(F)c3)c(C)nc2c1 ; value: >32 µM
CO[C@H]1/C=C/O[C@@]2(C)Oc3c(C)c(OC(C)=O)c4c(c3C2=O)C(=O)C=C(NC(=O)/C(C)=C\C=C\[C@H](C)[C@H](O)[C@@H](C)[C@@H](O)[C@@H](C)[C@H](OC(C)=O)[C@@H]1C)C4=O ; value: 1.73 µg/mL
Cc1nc2ccc(F)cn2c1C(=O)NCc1ccc2c(c1)CCO2 ; value: >32 µM
CCCCN(CCCC)CCCCNc1ccc(C)c2sc3ccccc3c(=O)c12 ; value: 9.8 µg/mL
Cc1ccn2c(C(=O)NCc3ccc(N4CCN(c5ccc(C(F)(F)F)cn5)CC4)c(F)c3)c(C)nc2c1 ; value: >32 µM
Nc1nc2c(ncn2O[C@H]2CO[C@@H](CO)O2)c(=O)[nH]1 ; value: >100 µg/mL
Cc1ccc(NC2=CC(=O)C(=O)c3ccccc32)c(C)c1 ; value: 8.28 µg/mL
O=C(/C=C/c1ccc(O)c(O)c1)O[C@@H]1CC(O)(C(=O)O)C[C@@H](OC(=O)/C=C/c2ccc(O)c(O)c2)C1O ; value: >400 µM
COc1ccc(CC2C3=C(CCCC3)CCN2c2c([N+](=O)[O-])cc3c(=O)c(C(=O)O)cn(C4CC4)c3c2C)cc1 ; value: 118 µM
CC(=O)Nc1ccc(/C=N/NC(=O)Cn2nc(-c3ccccc3)c3c2-c2ccccc2S(=O)(=O)N3C)cc1 ; value: ≥100 µM
Cc1c2cc[n+](CCN3CCCCC3)cc2c(C)c2c1[nH]c1ccc(O)cc12 ; value: 4.71 µg/mL
O=C1CC(c2ccc([N+](=O)[O-])cc2)n2nc(-c3ccc4ccccc4c3)nc2N1 ; value: >50 µg/mL
COC(=O)N1c2ccccc2N(C(=O)OC)c2c1oc1ccccc1c2=O ; value: >12.5 µg/mL
O=c1[nH]cnc2c1ncn2C1C[C@H](CO)[C@@H](CO)C1 ; value: >200 µg/mL
Cc1cc(Nc2ccc(N(C)C)cc2)c2cc(N(C)C)ccc2n1 ; value: 1.76 µg/mL
Oc1ccc2oc3ccc(O)cc3c2c1 ; value: 16 µg/mL
Cc1cn2c(C(=O)NCc3ccc(N4CCN(c5ccc(S(F)(F)(F)(F)F)cc5)CC4)c(F)c3)c(C)nc2s1 ; value: >32 µM
S=C(S)N1CCCC1 ; value: 4.09 µg/mL

A second listing of 10 rows from above:

compound	method	value
COc1ccc(/C=N/NC(=O)Cn2nc(-c3ccccc3)c3c2-c2ccccc2S(=O)(=O)N3C)cc1		15.4 µM
CN[C@@H]1[C@H](O[C@H]2[C@H](O[C@H]3[C@H](O)[C@@H](O)[C@H](N=C(N)N)[C@@H](O)[C@@H]3N=C(N)N)O[C@@H](C)[C@]2(O)C=O)O[C@@H](CO)[C@H](O)[C@H]1O		>64 µg/mL
Cc1cn2c(C(=O)NCc3ccc(N4CCN(c5ccc(S(F)(F)(F)(F)F)cc5)CC4)c(F)c3)c(C)nc2s1		>32 µM
O=C1C=C(Nc2ccccc2N=C2C(N3C4=CCc5ccccc5C4=Nc4ccccc43)=CC(=O)c3ccccc32)C(=O)c2ccccc21	MTT	98.5 µM
Cc1cc(Nc2ccc(N(C)C)cc2)c2cc(N(C)C)ccc2n1		1.76 µg/mL
O=C1C=C(Nc2ccc(Br)cc2)c2ccccc2C1=O		>10 µg/mL
C=C(C)C1CC=C(C)/C(=N/NC(=O)c2cccnc2)C1	MTT	420 µM
C=CCN(CCNC/C=C(\C)CCC=C(C)C)C1CCCC1	MTS	51 µM
O=[N+]([O-])c1cn2c(n1)S(=O)CC(OCc1ccc(OC(F)(F)F)cc1)C2		>128 µM
CCOC(=O)C(NC(=O)c1ccccc1)(N1CCN(c2cc3c(cc2F)c(=O)c(C(=O)O)cn3CC)CC1)C(F)(F)F		>62.5 µg/mL

Blank or dashed fields: not listed here. Lines come from different laboratories, so protocols vary.